For 1 substance, Km results are on record in US20260308536A1, “NOVEL URICASE VARIANTS AND METHODS OF USE THEREOF” (priority 2023, published 2026).

This data set concerns O=c1[nH]c(=O)c2[nH]c(=O)[nH]c2[nH]1. The data set is described as follows: purified protein, by the assay type. As to conditions: other: role: substrate; wild type Aspergillus flavus uricase (WT); pH 10.5; 25.0 °C.

On to “Aspergillus flavus uricase, wild type, SEQ ID NO: 7 (Aspergillus flavus)”, for which the Michaelis constant (Km) came out at 290 ± 30 µM.
